For the assay, the system named is Middle East respiratory syndrome-related coronavirus. Kind of assay: Antiviral activity against MERS-CoV assessed as reduction in viral infection preincubated with virus for 30 mins followed by Huh-7 cells addition and culture replaced with fresh medium after 12 hrs post infection measured after 48 hrs by fluorescence assay.

Where only a bound is given, the exact number is not on record here.

Turning to `CC[C@H](C)[C@H](NC(C)=O)C(=O)N[C@@H](CCC(=O)O)C(=O)N[C@@H](CCC(=O)O)C(=O)N[C@H](C(=O)N[C@H](C(=O)N[C@@H](CCCCN)C(=O)N[C@@H](CCCCN)C(=O)N[C@H](C(=O)N[C@@H](Cc1c[nH]cn1)C(=O)N[C@@H](Cc1c[nH]cn1)C(=O)N[C@H](C(=O)N[C@@H](CCC(=O)O)C(=O)N[C@@H](CCCNC(=N)N)C(=O)N[C@@H](C)C(=O)N[C@H](C(=O)N[C@@H](CCC(=O)O)C(=O)N[C@@H](C)C(=O)N[C@@H](CCC(N)=O)C(=O)N[C@@H](CCC(N)=O)C(=O)N[C@@H](CCCCN)C(=O)N[C@@H](CC(C)C)C(=O)N[C@@H](CC(C)C)C(=O)N[C@@H](CCC(N)=O)C(=O)N[C@@H](CC(C)C)C(=O)N[C@H](C(=O)N[C@H](C(=O)N[C@@H](Cc1c[nH]c2ccccc12)C(=O)NCC(=O)N[C@H](C(=O)N[C@@H](CCCCN)C(=O)N[C@@H](CCC(N)=O)C(=O)N[C@@H](CC(C)C)C(=O)N[C@@H](CCC(N)=O)C(=O)N[C@@H](C)C(=O)N[C@@H](CCCNC(=N)N)C(=O)N[C@H](C(=O)N[C@@H](CC(C)C)C(N)=O)[C@@H](C)CC)[C@@H](C)CC)C(C)C)[C@@H](C)O)[C@@H](C)CC)[C@@H](C)CC)[C@@H](C)CC)C(C)C)[C@@H](C)CC`, the half-inhibitory concentration (IC50) was more than 20 µM.

Source of the values: ChEMBL document CHEMBL5038580 (J Med Chem, 2022).
